# Source: patent US7125986B2, “Penicillanic acid derivative compounds and methods of making” (Southern Methodist University Foundation for Research, priority 1997, dated 2006)
# Chains of the proteins cited; added tags and fusions are not shown. Residues count along the entry.
# UniProt P62593, 24-286 limits assumed: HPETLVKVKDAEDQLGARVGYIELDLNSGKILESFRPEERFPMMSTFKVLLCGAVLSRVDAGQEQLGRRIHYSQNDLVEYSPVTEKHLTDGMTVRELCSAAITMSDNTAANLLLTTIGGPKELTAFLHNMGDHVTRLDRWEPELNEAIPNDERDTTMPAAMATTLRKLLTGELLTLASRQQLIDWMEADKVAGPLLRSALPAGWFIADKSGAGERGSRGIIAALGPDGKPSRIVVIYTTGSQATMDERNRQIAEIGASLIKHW
# UniProt P05364, 21-381 limits assumed: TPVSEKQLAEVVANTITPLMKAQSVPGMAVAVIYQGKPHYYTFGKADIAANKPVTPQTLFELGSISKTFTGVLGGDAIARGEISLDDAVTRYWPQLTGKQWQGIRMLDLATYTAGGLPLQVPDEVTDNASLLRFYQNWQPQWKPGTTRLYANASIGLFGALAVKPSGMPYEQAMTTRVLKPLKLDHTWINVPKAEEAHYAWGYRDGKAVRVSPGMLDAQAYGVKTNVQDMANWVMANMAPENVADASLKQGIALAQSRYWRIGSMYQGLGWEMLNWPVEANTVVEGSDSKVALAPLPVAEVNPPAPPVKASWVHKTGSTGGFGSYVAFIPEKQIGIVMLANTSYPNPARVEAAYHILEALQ
# Legend:
# [1] = molecular target: TEM-1 β-lactamase (Escherichia coli, UniProt P62593); assay: β-lactamase inhibition, nitrocefin hydrolysis (TEM-1); format: biochemical; details: read-out: IC50 (uM) TEM-1; 10 minute incubation of enzyme (2.56 nM) and inhibitor; nitrocefin substrate; tested form: disodium salt
# [2] = molecular target: β-lactamase of Enterobacter cloacae P99 (Enterobacter cloacae, UniProt P05364); assay: β-lactamase inhibition, nitrocefin hydrolysis (P99); format: biochemical; details: read-out: IC50 (uM) Ent. cloacae P99; 10 minute incubation of enzyme (2.56 nM) and inhibitor; nitrocefin substrate; tested form: disodium salt
compound,measurement,setting,value
CC1(C)[C@H](C(=O)O)N2C(=O)/C(=C/C(=O)O)[C@H]2S1(=O)=O,IC50,[1],2.51 µM
same,IC50,[2],0.75 µM
